The record followed here is PubChem BioAssay AID1918969 (ICCB-Longwood Screening Facility, Harvard Medical School, 2023).

Where “and” joins values, the source holds several entries; their conditions need not be identical. Identical values can stand only once. Only a part is listed here, and it is no random draw. Calls of active or inactive are those of the source. No stated cut-off is given here; in the data, active means inhibition above about 27% (passing the limit was not always enough); inactive means the rest.

This experiment relates to HCMV UL50-UL53 nuclear egress complex (human cytomegalovirus). Kind of experiment: HCMV nuclear egress complex disruptors – biochemical, HTRF (AID 1918969). The following applies: HTRF UL50-UL53 interaction, normalized percent inhibition; active compounds read high; concentration not given here.
As to `COc1cc(-n2cnnn2)ccc1-n1cnnn1`, the inhibition was inactive: 5%.
On to `CN(C(=O)Cc1ccc(Cl)c(Cl)c1)[C@@H]1CC[C@]2(CCCO2)C[C@H]1N1CCCC1`, for which the inhibition is inactive: -22.3%.
Turning to `O=C(OC1CN2CCC1CC2)c1ccc(Cl)cc1` (stereo unspecified), the inhibition was inactive: -21.6%.
Take `CN(C(=O)Cc1ccccc1)[C@@H]1CC[C@]2(CCCO2)C[C@H]1N1CCCC1`: the inhibition is inactive: -10.4%.
For `CCOP1(=S)c2c(C)nn(CCC#N)c2N=C(c2ccc(F)cc2)N1C` (stereo unspecified), the inhibition is inactive: 0.4%.
Regarding `CC1(C)Nc2ccccc2OP1(=O)c1ccccc1` (stereo unspecified), the inhibition was inactive: -12.5%.
With `O=P1(Nc2nc3ccc(Cl)cc3s2)COc2ccccc2OC1`, the inhibition is inactive: -37.1%.
To `NC(=O)Nc1ccc([As](=O)(O)O)cc1` belongs inactive: -7.7%.
In the case of `NC(=O)COC(=O)C1(O)c2ccccc2-c2ccccc21` it was inactive: -29.8%; in that of `CC1(C)COP(=S)(N(C2=NCCC2)c2ccccc2)OC1`, inactive: 12.1%.
Consider `CCSP(=O)(c1ccccc1)c1ccccc1`, for which the inhibition is inactive: 2.5%.
To `Cc1nn(CCC#N)c2c1P(=O)(Nc1ccccc1Cl)N(C)C(c1ccc(F)cc1)=N2` (stereo unspecified) belongs inactive: -9.3%; to `CP(=O)(N1CCOCC1)N1CCOCC1`, inactive: 5.1%.
`Cc1ccc(C(=O)OC2CN3CCC2CC3)cc1` (stereo unspecified): the inhibition is inactive: -27%.
To `Cc1nn(-c2ccccc2)c2c1P(=O)(N1CCOCC1)N(C)C(c1ccccc1)=N2` (stereo unspecified) belongs inactive: -34.1%.
`CN(C(=O)Cc1ccc(Cl)c(Cl)c1)[C@@H]1CCCC[C@H]1N1CCCC1`: the inhibition was inactive: 15.7%.
In the case of `Nc1nonc1-c1no[n+]([O-])c1-c1nonc1N`, the inhibition is inactive: 15.1%.
As for `CCn1cccc/c1=N\P1(=S)OCCO1`, the inhibition is inactive: 3.1%.
To `CN(C)CCS` belongs inactive: -55.3%.
Take `CCOC(=O)c1ccc(NP(C)(=O)Oc2ccc(OC)cc2)cc1` (stereo unspecified): the inhibition is inactive: -5%.
With `Cc1cccc(NP(C)(=O)Oc2ccccc2)c1` (stereo unspecified), the inhibition was inactive: -13.7%.
In the case of `CP(=O)(NC(=O)Nc1ccccc1)Oc1ccccc1` (stereo unspecified) it was inactive: -4.9%.
To `COP1(=S)c2c(C)nn(-c3ccccc3)c2N=C(c2ccccc2)N1C1CC1` (stereo unspecified) belongs inactive: -33.3%; to `COc1ccccc1OP(C)(=O)Nc1ccccc1` (stereo unspecified), inactive: 2.1%.
With `CCN1C(=O)N(c2ccccc2)P(=S)(OC)c2cc3c(cc21)OCCO3` (stereo unspecified), the inhibition was inactive: -9%.
To `CP(=O)(Nc1ccc(Cl)cc1)Oc1ccccc1` (stereo unspecified) belongs inactive: -2.8%; to `O=C(O)CCC(=O)N=S(c1ccccc1)c1ccccc1.O=[N+]([O-])c1cc([N+](=O)[O-])c(O)c([N+](=O)[O-])c1`, inactive: -87.3%.
For `COP1(=S)N=C2c3ccccc3CN2c2cc(N(C)C)ccc21` (stereo unspecified), the inhibition is inactive: -23.9%.
In the case of `Cc1cc(C)cc(OP(C)(=O)NCc2ccccc2)c1` (stereo unspecified) it was inactive: -0.2%; in that of `Nc1nonc1OCCOc1nonc1N`, inactive: -10%.
On to `O=C(O)C1(O)c2ccccc2-c2ccccc21`, for which the inhibition is inactive: -24.1%.
In the case of `CN(C)P1(=O)Nc2ccccc2S1` (stereo unspecified) it was inactive: -0.8%.
Regarding `O=P1(Nc2nccs2)CC=CC1`, the inhibition was inactive: 4.9%.
In the case of `O=P(O)(O)F` it was inactive: -46%; in that of `CC1=C2[N-][C@@H](C(CC(N)=O)[C@@]2(C)CCC(=O)NCC(C)OP(=O)([O-])OC2C(CO)OC(n3cnc4cc(C)c(C)cc43)C2O)[C@]2(C)N=C(C(C)=C3N=C(C=C4N=C1C(CCC(N)=O)C4(C)C)C(CCC(N)=O)[C@]3(C)CC(N)=O)C(CCC(N)=O)[C@]2(C)CC(N)=O.[C-]#N.[Co+3]` (stereo partly specified), active: 68.7%.
`CCOP(OCC)N1CCOCC1`: the inhibition is inactive: 8.8%.
In the case of `O=C(O[C@H]1CN2CCC1CC2)C1NCc2ccccc2[C@@H]1c1ccccc1` (stereo partly specified) it was inactive: -25.4%.
With `O=C(COC(=O)C(O)(c1ccccc1)c1ccccc1)N1CCCCC1`, the inhibition is inactive: -13.8%.
As to `CCc1nc2c(n1)c1c(non1O)c1c2no[n+]1[O-]`, the inhibition is inactive: -69.4%.
Regarding `CCc1ccc(OP(C)(=O)Nc2cccnc2)cc1` (stereo unspecified), the inhibition is inactive: -26.8%.
Consider `Cc1ccccc1NP(C)(=O)Nc1ccccc1C`, for which the inhibition is inactive: -29.4%.
`CC(=O)OC1CN2CCC1C(c1ccccc1)C2` (stereo unspecified): the inhibition was inactive: 5.1%.
In the case of `O=P(Nc1nccs1)(c1ccccc1)c1ccccc1` it was inactive: -26.6%; in that of `C/C1=C2N=C(/C=C3N=C(/C(C)=C4\[N-][C@@](C)([C@@H]5N=C1[C@](C)(CCC(=O)NC[C@@H](C)OP(=O)([O-])O[C@H]1[C@@H](O)[C@@H](n6cnc7cc(C)c(C)cc76)O[C@@H]1CO)[C@H]5CC(N)=O)[C@@](C)(CC(N)=O)[C@@H]4CCC(N)=O)[C@@](C)(CC(N)=O)[C@@H]\3CCC(N)=O)C(C)(C)[C@@H]/2CCC(N)=O.[C-]#N.[Co+3]`, inactive: 12.8%.
As to `CC(=O)OC1(C#N)CN2CCC1CC2` (stereo unspecified), the inhibition was inactive: -3.1%.
In the case of `Nc1nonc1OCc1nonc1COc1nonc1N` it was inactive: -29%; in that of `C=CCN1CCN(CCOC(=O)C(O)(c2ccccc2)c2ccccc2)CC1`, inactive: -10.1%; in that of `O=C(OC1/C(=C/c2ccccc2F)N2CCC1CC2)c1ccccc1` (stereo unspecified), inactive: 2.8%.
To `CC1CCC(C(C)C)C(OP(=O)(Nc2nccs2)c2ccccc2)C1` (stereo unspecified) belongs inactive: -8%; to `O=C(OC1CN2CCC1CC2)c1ccccc1` (stereo unspecified), inactive: -27.1% and inactive: -17.9%.
To `CN(C(=O)Cc1ccc(Cl)c(Cl)c1)[C@@H]1CCCC[C@@H]1N1CCCC1` belongs inactive: -3.2%; to `COC(=O)c1cc2c(s1)N=C(c1ccccc1)N(C)P2(=O)N1CCOCC1` (stereo unspecified), inactive: 0.8%; to `O=C(OCC1CN(Cc2ccccc2)CCO1)C(O)(c1ccccc1)c1ccccc1` (stereo unspecified), inactive: -6.9%.
Turning to `O=C(OCCN1CCN(CCOCc2ccccc2)CC1)C(O)(c1ccccc1)c1ccccc1`, the inhibition was inactive: -0.7%.
Take `Cc1cc(NC2=NC3C(C(=O)N(C)C(=O)N3C)N2C)n(-c2ccccc2)n1` (stereo unspecified): the inhibition is inactive: -6.8%.
With `O=P1(Nc2nncs2)C=C(c2ccccc2)SC(c2ccccc2)=C1`, the inhibition is inactive: -23.6%.
